Drawing on patent publication US7388017B2, “Inhibitors of serine proteases, particularly hepatitis C virus NS3 protease” (Vertex Pharmaceuticals Incorporated, priority 1996, dated 2008), this text covers Ki for 11 molecules.

Protein sequences, listed by entry. Tags and fused reporters are not part of them. Residues count along the entry.
UniProt P27958, 1027-1208 limits assumed: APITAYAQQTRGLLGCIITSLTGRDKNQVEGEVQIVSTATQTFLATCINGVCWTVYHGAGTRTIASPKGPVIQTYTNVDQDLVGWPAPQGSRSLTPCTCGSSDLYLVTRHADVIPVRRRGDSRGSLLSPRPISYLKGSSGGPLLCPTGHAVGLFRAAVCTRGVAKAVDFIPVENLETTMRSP

The structures appear in SMILES notation. Some results are limits rather than exact numbers.

For the assay, the target named is HCV NS3 protease (Hepatitis C virus genotype 1a, UniProt P27958). The assay can be described thus: Enzyme inhibition of HCV NS3 serine protease (cleavage of peptide substrate / EDVV AbuC-p-nitroanilide, with or without NS4A). It counts as biochemical. The conditions noted are these: Enzyme inhibition data; Ki from rate vs [inhibitor] plots, Morrison tight binding competitive inhibition fit; 30 C, pH 7.8. As to the method:
Cleavage reactions were quenched by the addition of an equal volume of a mixture of 10% TFA:acetonitrile (1:1) and activity was assessed on a reversed phase HPLC column (Rainin C18 Microsorb-MV, […], 4.6×250 mm; 0-50% acetonitrile, 0.1% TFA@ 3.33% min) using a Hewlett Packard 1050 instrument with auto-injection and diode array detection at 210 nm and 280 nm (where appropriate). Peptide elution fragments were collected and identified by mass spectrometry and N-terminal sequence analysis. Fragment identity and concentration was further verified by authentic, synthesized products. Initial rates of cleavage were determined at <20% substrate conversion and catalytic parameters were determined assuming Michaelis-Menten kinetics using the MultiFit program (Day Computing, Cambridge, Mass.).
Spectrophotometric assays were run in a 96-well microtiter plate at 30 C, using a SpectraMax 250 reader (Molecular Devices, Sunnyvale, Calif.) with kinetic capability. Cleavage of EDVV AbuC-p-nitroanilide (5A-pNA) substrate was performed with or without […] in the same buffer used for HPLC assays at 30 C, and pNA release was monitored at 405 nm. The extinction-coefficient of p-nitroaniline is independent of pH at values of 5.5. and above [Tuppy, H., et al., Hoppe-Seyler's Z. Physiol. Chem., 329, pp. 278-288 (1962)]; Raybuck and Luong, unpublished observations).
Kinetic constants for the rapid equilibrium ordered bisubstrate reaction were determined from rate vs [4A], [EDVV AbuC-pNA] data by non-linear least squares fitting to equation 1 [Morrison, J. F. Biochim. Biophys. Acta, 185, pp. 269-286 (1969)] as described in the text. Kii and Kis values for peptidyl inhibitors were determined from rate vs [inhibitor], [substrate] data and fitting to the equation for mixed inhibition: rate=Vmax[S]/{Km(1+[I]/Kis)+[S](1+[I]/Kii)} The commercial program KinetAsyst (StateCollege, Pa.) was used for both procedures. Ki values were calculated from rate vs [inhibitor] plots by a nonlinear least squares fit of the data to the equation of Morrison for tight binding competitive inhibition [Morrison, J. F. Biochim. Biophys. Acta, 185, pp. 269-286 (1969)]. The KineTic program (BioKin Ltd) was used for this procedure.
Ki values are expressed in μM. Category “A” indicates <1 μM inhibition; category “B” indicates 1-100 μM inhibition; category “C” indicates >100 μM.
Broadly, the Ki is a dissociation constant, usually derived from enzyme kinetics or from competition with a known ligand. Lower therefore signals higher affinity. `CC[C@@H](C=O)NC(=O)[C@@H]1C[C@@H](OC(=O)Nc2ccccc2)CN1C(=O)[C@@H](NC(=O)[C@@H](NC(=O)c1cnccn1)C(C)C)C(C)C` displayed a Ki of 1 to 100 µM. Molecule `CCC(C=O)NC(=O)C1CC(OCc2ccccc2)CN1C(=O)C(NC(=O)C(Cc1ccc(O)cc1)NC(=O)c1cnccn1)C(C)C` (centres unmarked) showed a Ki of 1 to 100 µM. Molecule `CC[C@@H](C=O)NC(=O)[C@@H]1C[C@@H](OCc2ccccc2)CN1C(=O)C(NC(=O)/C=C\c1ccccc1)C(C)C` (some centres unmarked) registered a Ki of 1 to 100 µM. The result for `CCC(C=O)NC(=O)C(CC(C)C)NC(=O)C(NC(=O)C(NC(=O)CCN1CCOCC1)C(C)C)C(C)C` (centres unmarked) reads 1 to 100 µM; that for `CC[C@@H](C=O)NC(=O)[C@@H]1C[C@@H](OCc2ccccc2)CN1C(=O)[C@@H](NC(=O)C(C#N)=C1CCCCC1)C(C)C`, 1 to 100 µM; that for `CC[C@@H](C=O)NC(=O)[C@@H]1C[C@@H](OCc2ccccc2)CN1C(=O)[C@@H](NC(=O)C(F)c1ccccc1)C(C)C` (some centres unmarked), over 100 µM. As for `CC[C@@H](C=O)NC(=O)[C@@H]1C[C@@H](NC(=O)C2CCCCC2)CN1C(=O)C(NC(=O)C(NC(=O)c1cnccn1)C(C)C)C(C)C` (some centres unmarked), the Ki is over 100 µM. On to `CC[C@@H](C=O)NC(=O)[C@@H]1C[C@@H](OCc2ccccc2)CN1C(=O)[C@@H](NC(=O)c1cccc(OC)c1OC)C(C)C`, for which the Ki is over 100 µM. As for `CC[C@H](NC(=O)C(CC(C)C)NC(=O)C(NC(=O)C(NC(=O)c1cnccn1)C(C)C)C(C)C)C(=O)C(=O)O` (some centres unmarked), the Ki was in the range of 1 to 100 µM. In turn, `CC[C@@H](C=O)NC(=O)[C@@H]1C[C@@H](OCc2ccccc2)CN1C(=O)[C@@H](NC(=O)C1NCCc2ccccc21)C(C)C` (some centres unmarked) gave a Ki of over 100 µM. The result for `CCC(Oc1ccccc1)C(=O)N[C@H](C(=O)N1C[C@H](OCc2ccccc2)C[C@H]1C(=O)N[C@H](C=O)CC)C(C)C` (some centres unmarked) reads over 100 µM.
